From PubChem BioAssay AID1903 (Southern Research Specialized Biocontainment Screening …, 2009) come the findings set out here.

By UniProt entry, the sequences of proteins in these tests, tags left out.
UniProt P03070, whole entry: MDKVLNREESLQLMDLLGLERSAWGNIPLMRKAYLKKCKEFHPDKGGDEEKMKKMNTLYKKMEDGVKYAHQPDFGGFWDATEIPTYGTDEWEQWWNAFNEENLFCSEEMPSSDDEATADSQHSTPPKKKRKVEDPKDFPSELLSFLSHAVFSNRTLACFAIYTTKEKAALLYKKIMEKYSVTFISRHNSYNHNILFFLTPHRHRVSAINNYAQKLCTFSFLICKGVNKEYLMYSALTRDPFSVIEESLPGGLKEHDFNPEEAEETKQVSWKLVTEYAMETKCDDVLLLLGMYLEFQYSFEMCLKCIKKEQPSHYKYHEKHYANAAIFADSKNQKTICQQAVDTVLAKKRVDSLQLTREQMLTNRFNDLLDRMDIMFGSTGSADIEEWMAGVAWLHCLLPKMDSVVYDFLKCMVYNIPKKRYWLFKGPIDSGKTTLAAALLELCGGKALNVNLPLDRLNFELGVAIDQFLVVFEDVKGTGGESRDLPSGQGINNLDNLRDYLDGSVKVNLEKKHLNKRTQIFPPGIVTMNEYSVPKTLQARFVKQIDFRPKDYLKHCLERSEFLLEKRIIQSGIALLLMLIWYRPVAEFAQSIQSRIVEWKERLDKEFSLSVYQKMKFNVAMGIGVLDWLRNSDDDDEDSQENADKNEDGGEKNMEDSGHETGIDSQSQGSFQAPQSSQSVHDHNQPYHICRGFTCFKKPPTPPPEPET

The test has as its target Large T antigen (Simian virus 40) (UniProt P03070). In words: TAg ATPase/helicase activity blockers – biochemical (AID 1903). The following applies: SV40 large T antigen ATPase/helicase inhibition assay.

By IC50 is commonly meant the midpoint of a concentration-inhibition curve. For `COc1ccc(NC2CCN(C(=O)OC(C)(C)C)CC2)cc1`, the half-maximal inhibitory concentration (IC50) is 24.3 µM.

`CCOC(=O)N1CCC(Nc2ccc(OC)cc2)CC1`: the IC50 is 10.6 µM.
